Test system: Intracellular pyrimidine nucleotide (pyNTP) levels
Experiment: Intracellular pyrimidine nucleotide quantitation by HPLC in CMV-infected HUVEC
Format: cell-based, human
Conditions: CMV VHL/E-infected HUVEC, 4 days; A771726 and/or 200 µM uridine

Compound: O=c1ccn([C@@H]2O[C@H](CO)[C@@H](O)[C@H]2O)c(=O)[nH]1 [uridine alone, uridine]
- Intracellular pyNTP levels: increased pyNTP levels

Source: patent EP1169036B1, “ANTI-VIRAL USES OF LEFLUNOMIDE PRODUCTS” (priority 1998, dated 1999)
